Literature values as cited in publication PMC6153800, “Structure-Based Drug Design and Characterization of Sulfonyl-Piperazine Benzothiazinone Inhibitors of DprE1 from Mycobacterium tuberculosis” (Antimicrobial Agents and Chemotherapy, 2018).

Chains of the proteins cited; added tags and fusions are not shown.
UniProt P9WJF1, whole entry: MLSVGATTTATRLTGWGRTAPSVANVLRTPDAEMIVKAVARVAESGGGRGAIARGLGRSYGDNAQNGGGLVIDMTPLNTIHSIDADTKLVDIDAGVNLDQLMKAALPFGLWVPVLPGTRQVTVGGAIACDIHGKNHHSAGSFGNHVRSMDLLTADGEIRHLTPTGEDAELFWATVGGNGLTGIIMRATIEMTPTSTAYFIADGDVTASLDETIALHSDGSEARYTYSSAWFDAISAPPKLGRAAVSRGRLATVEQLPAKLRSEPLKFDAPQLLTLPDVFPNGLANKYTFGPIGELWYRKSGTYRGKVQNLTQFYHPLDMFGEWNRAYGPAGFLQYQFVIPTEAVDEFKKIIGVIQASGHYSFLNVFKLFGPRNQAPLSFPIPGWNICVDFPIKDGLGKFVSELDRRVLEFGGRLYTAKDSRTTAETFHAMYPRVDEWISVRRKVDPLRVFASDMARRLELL

Molecular target: wild-type M. tuberculosis DprE1 (Mycobacterium tuberculosis, UniProt P9WJF1)
Details: read-out: IC50 WT DprE1; wild-type enzyme; ref (1) Foo et al. 2016; cited from earlier work

Compound: COc1ccc(CNc2nc3cc(C(F)(F)F)ccc3nc2C(=O)O)cc1
- IC50: 200 nM
